Results of unrelated studies side by side (data: NIAID ChemDB).

Shared fields: enzyme or target tests; organism: Hepatitis C virus; target: NS5B polymerase

An empty or dashed field is not shown. ICn: concentration for n% inhibition. a–b is a range or a potency band. Inhibition is in % at the dose shown (toxicity tests: loss of growth or viability). Rows are shuffled and stem from different studies.

smiles	strain	read-out	dose	result
O=C(N[C@@H](CCc1ccc(O)cc1)C(=O)O)c1ccc2c(c1)nc(-c1ccoc1)n2C1CCCCC1	-	IC50	-	<1 µM
O=C(O)/C=C/c1ccc(NC(=O)C2(NC(=O)c3ccc4c(c3)nc(-c3ccsc3)n4C3CCCCC3)CCCC2)cc1	-	IC50	-	<0.5 µM
O=C(O)c1ccc2c(c1)nc(-c1ccc3nc(-c4cccc(C(=O)N5CCCC5)c4)ccc3c1)n2C1CCCCC1	-	inhibition	100 µM	99.67%
Cc1nc(C)c(-c2nc3cc(C(=O)N[C@H](C(=O)O)c4c[nH]c5ccc(O)cc45)ccc3n2C2CCCCC2)s1	-	IC50	-	1–5 µM
NC(=O)CNC(=O)c1ccc(-c2ccc(Cl)cc2)c(-c2ccc3cc(-c4nc5cc(C(=O)O)ccc5n4C4CCCCC4)ccc3n2)c1	-	inhibition	100 µM	98.71%
C[C@@H](NC(=O)c1ccc2c(c1)nc(-c1ccoc1)n2C1CCCCC1)C(=O)Nc1ccc2c(c1)cc(C(=O)O)n2C	-	IC50	-	<0.5 µM
COc1ccc(CNC(=O)c2ccc3c(c2)nc(-c2ccoc2)n3C2CCCCC2)cc1OC	-	IC50	-	<1 µM
O=C(O)/C=C/c1ccc(NC(=O)C2(NC(=O)c3ccc4c(c3)nc(-c3cccc5c3OCO5)n4C3CCCC3)CCCC2)cc1	-	IC50	-	0.5–5 µM
O=C(O)COc1ccc2[nH]cc(C[C@@H](NC(=O)c3ccc4c(c3)nc(-c3ccoc3)n4C3CCCCC3)C(=O)O)c2c1	-	IC50	-	<1 µM
O=C(O)/C=C/c1ccc(NC(=O)C2(NC(=O)c3ccc4c(c3)nc(-c3ccoc3)n4C3CCCCC3)CC2)cc1	-	IC50	-	<0.5 µM
Cc1cc(-c2ccccc2)nc2ccc(-c3nc4cc(C(=O)O)ccc4n3C3CCCCC3)cc12	-	inhibition	33 µM	98.48%
CCC[C@]1(CC(=O)O)OCCc2c1[nH]c1c(C)ccc(C#N)c21	BB7 genotype 1B	IC50	-	0.4 µM
COc1ccc(-c2ccc(Cl)cc2)c(-c2ccc3cc(-c4nc5cccc(C(=O)O)c5n4C4CCCCC4)ccc3n2)c1	-	inhibition	33 µM	104%
O=C(O)/C=C/c1ccc(NC(=O)C2(NC(=O)c3ccc4c(c3)nc(-c3ccoc3)n4C3CCCCC3)CCC2)cc1	-	IC50	-	<0.5 µM
CC(=O)Nc1nc(C[C@H](Cc2ccc(OCC(=O)O)cc2)NC(=O)c2ccc3c(c2)nc(-c2ccoc2)n3C2CCCCC2)cs1	-	IC50	-	1–5 µM
O=C(O)/C=C/c1ccc(NC(=O)C2(NC(=O)c3ccc4c(c3)nc(-c3ccco3)n4C3C[C@H]4CC[C@@H]3C4)CCCC2)cc1	-	IC50	-	<0.5 µM
O=C(O)c1ccc2c(c1)nc(-c1ccc3ccc(-c4ccccc4)nc3c1)n2C1CCCCC1	-	inhibition	33 µM	90.5%
CN(C)c1nc(C[C@H](Cc2ccc(OCC(=O)O)cc2)NC(=O)c2ccc3c(c2)nc(-c2ccoc2)n3C2CCCCC2)cs1	-	IC50	-	1–5 µM

Repeating the final 2 entries:

smiles	strain	read-out	dose	result
O=C(O)c1ccc2c(c1)nc(-c1ccc3ccc(-c4ccccc4)nc3c1)n2C1CCCCC1	-	inhibition	33 µM	90.5%
CN(C)c1nc(C[C@H](Cc2ccc(OCC(=O)O)cc2)NC(=O)c2ccc3c(c2)nc(-c2ccoc2)n3C2CCCCC2)cs1	-	IC50	-	1–5 µM